Compound potency records, mixed from different reports. Data source: NIAID ChemDB in PubChem.

Common to all: host cell toxicity; cells: MT-4; endpoint: CC50

CCn: concentration that lowers growth or viability of the cells by n%. Conditions beyond the fields shown may differ between rows.

smiles | value
CC(=O)O[C@@]12[C@H](O)[C@@H](C)[C@@]3(O)[C@@H](C=C(CO)C[C@@]4(O)C(=O)C(C)=C[C@@H]34)[C@@H]1C2(C)C | >1000 µg/mL
CCC(C)Oc1nc(N)cc(S(=O)(=O)c2cccc(C)c2)n1 | >200 µM
CC(C)=CCc1c(O)cc2c(c1O)C(=O)CC(c1ccccc1)O2 | >100 µg/mL
CCC(C)Oc1cc(=O)[nH]c(Sc2cccc(OC)c2)n1 | >300 µM
O=C(NCCCCCN1CCCN(CCCCCNC(=O)OCc2ccccc2)CCCN(CCCCCNC(=O)OCc2ccccc2)CCN(CCCCCNC(=O)OCc2ccccc2)CCC1)OCc1ccccc1 | 1 µM
CCCCCCCCCC(=O)O[C@@]12[C@H](OC(C)=O)[C@@H](C)[C@@]3(O)[C@@H](C=C(CO)C[C@]4(O)C(=O)C(C)=C[C@@H]34)[C@@H]1C2(C)C | >62.5 µg/mL
O=C(NCCCCCN1CCCN(CCCCCNC(=O)OCc2ccccc2)CCN(CCCCCNC(=O)OCc2ccccc2)CCCN(CCCCCNC(=O)OCc2ccccc2)CC1)OCc1ccccc1 | 10 µM
CC(=O)OCC1=C[C@H]2[C@@H]3C(C)(C)[C@]3(OC(C)=O)[C@H](OC(=O)C34CC5CC(CC(C5)C3)C4)[C@@H](C)[C@]2(O)[C@@H]2C=C(C)C(=O)[C@]2(O)C1 | >500 µg/mL
Cc1c(C(C)c2c(F)cccc2F)nc(SC/C=C/c2ccc([N+](=O)[O-])cc2)[nH]c1=O | >11.28 µM
CCC(C)Oc1cc(N)nc(Sc2ccc(OC)cc2)n1 | 300 µM
CCOC(=O)C1c2cccn2S(=O)(=O)c2ccccc2N1c1ccc(C)cc1 | >300 µM
Cc1cn([C@H]2C[C@H](N=[N+]=[N-])[C@@H](CO)O2)c(=O)[nH]c1=O | >20 µM
NCCCN1CCCN(CCCN)CCN(CCCN)CCCN(CCCN)CC1 | 50 µM
CCCCSc1nc(N)cc(Cl)n1 | 149 µM
CC(C)N1C(=O)c2cccn2S(=O)(=O)c2ccccc21 | 100 µM
O=C(OCc1ccccc1)N(CCCCCN1CCCN(CCCCCN(Cc2ccccc2)C(=O)OCc2ccccc2)CCCN(CCCCCN(Cc2ccccc2)C(=O)OCc2ccccc2)CCN(CCCCCN(Cc2ccccc2)C(=O)OCc2ccccc2)CCC1)Cc1ccccc1 | 1 µM
CC1(C)S[C@H]([C@H](NC(=O)Cc2ccccc2)C(=O)NCC(F)(F)F)N[C@H]1C(=O)NCCNC(=O)[C@@H]1N[C@@H]([C@H](NC(=O)Cc2ccccc2)C(=O)NCC(F)(F)F)SC1(C)C | >100 µM
NCCCCCCN1CCCN(CCCCCCN)CCN(CCCCCCN)CCCN(CCCCCCN)CC1 | 50 µM
COc1ccc(/C=C/CSc2nc(C(C)c3c(F)cccc3F)c(C)c(=O)[nH]2)cc1 | >11.7 µM
CCOC(=O)C1Nc2ccccc2S(=O)(=O)n2cccc21 | >300 µM
CC1(C)S[C@H]([C@H](NC(=O)Cc2ccccn2)C(=O)NCc2ccc(Cl)cc2Cl)N[C@H]1C(=O)NCCNC(=O)[C@@H]1N[C@@H]([C@H](NC(=O)Cc2ccccn2)C(=O)NCc2ccc(Cl)cc2Cl)SC1(C)C | >100 µM
CCc1c(C(C)c2c(F)cccc2F)nc(SC/C=C/c2ccc(OC)cc2)[nH]c1=O | 5.54 µM
CC1(C)S[C@H]([C@H](NC(=O)Cc2ccccc2)C(=O)N2CCCCC2)N[C@H]1C(=O)NCCNC(=O)[C@@H]1N[C@@H]([C@H](NC(=O)Cc2ccccc2)C(=O)N2CCCCC2)SC1(C)C | >100 µM
CC(=O)O[C@@H]1[C@@H](C)[C@@]2(O)[C@@H](C=C(CO)C[C@]3(O)C(=O)C(C)=C[C@@H]23)[C@@H]2C(C)(C)[C@]12OC(C)=O | >1000 µg/mL
Nc1cc(S(=O)(=O)c2ccccc2)nc(Cl)n1 | 10 µM
NCCCCCN1CCCN(CCCCCN)CCCN(CCCCCN)CCN(CCCCCN)CCC1 | 50 µM
COc1c(-c2ccc(O)c(O)c2)oc2c(CC=C(C)C)c(O)c(CC=C(C)C)c(O)c2c1=O | >200 µg/mL
CCC(C)Oc1cc(N)nc(Sc2cccc(OC)c2)n1 | ≥300 µM
CN1c2ccccc2N2C(=O)CN(CCN3CCOCC3)C(=O)C2c2cccn21 | >300 µM
CCC(c1nc(SCc2ccc(OC)cc2)[nH]c(=O)c1C)c1c(F)cccc1F | >12.02 µM
CC1(C)S[C@H]([C@H](NC(=O)Cc2ccccc2)C(=O)NCCO)N[C@H]1C(=O)NCCNC(=O)[C@@H]1N[C@@H]([C@H](NC(=O)Cc2ccccc2)C(=O)NCCO)SC1(C)C | >100 µM
CC(=O)Oc1ccc(CSc2nc(Cc3c(F)cccc3F)c(C)c(=O)[nH]2)cc1 | >60.1 µM
CC(C)=CCC1(CC=C(C)C)C=C([C@@H]2COc3c(ccc4c3C=CC(C)(C)O4)C2)C(O)=CC1=O | 30 µg/mL
COc1ccc(/C=C/Sc2nc(C(C)c3c(Cl)cccc3Cl)c(C)c(=O)[nH]2)cc1 | >55.93 µM
CC1(C)S[C@H]([C@@H](CO)NC(=O)Cc2ccccc2)N[C@H]1C(=O)NCCNC(=O)[C@@H]1N[C@@H]([C@@H](CO)NC(=O)Cc2ccccc2)SC1(C)C | >100 µM
O=C1c2cccn2S(=O)(=O)c2ccccc2N1Cc1ccccc1 | >300 µM
COCOc1ccc(-c2oc3cc(OCOC)cc(O)c3c(=O)c2OCOC)c(OCOC)c1 | 90 µg/mL
CCCCSc1nc(Sc2ccc3ccccc3c2)cc(=O)[nH]1 | >200 µM
C=CCN1C(=O)c2cccn2S(=O)(=O)c2ccccc21 | 150 µM

Repeating the final 4 entries:

smiles	value
O=C1c2cccn2S(=O)(=O)c2ccccc2N1Cc1ccccc1	>300 µM
COCOc1ccc(-c2oc3cc(OCOC)cc(O)c3c(=O)c2OCOC)c(OCOC)c1	90 µg/mL
CCCCSc1nc(Sc2ccc3ccccc3c2)cc(=O)[nH]1	>200 µM
C=CCN1C(=O)c2cccn2S(=O)(=O)c2ccccc21	150 µM